Experimental data: US5438118A (SmithKline Beechman Corp., priority 1993, dated 1995)

Assay: general procedure: solution-phase peptide synthesis; BOP/HOBt/NEt3; DCC/HOBt; symmetrical anhydride (Boc-Ala)2O from DCC
Settings: late stage modification step, HPLC (PRP-1)

2-[3-benzyl-5-(1-alanylamino-ethyl)-2,3,6,7-tetrahydro-1H-azepinyl]-1-oxo- propyl-valinyl-valine methyl ester
final HPLC purity: >90%
